Measured values from several laboratories, pooled; numbers as filed in NIAID ChemDB.

Shared fields: whole-cell or culture tests; organism: Cryptococcus neoformans; measure: MIC

An empty or dashed field is not shown. Lines come from different laboratories, so protocols vary.

CC(=O)OC1C(=O)N2CCCS(=O)C12c1ccccc1 ; strain or isolate: AH27/A ; value: 5.11 µM
Clc1ccc2nnc3c4ccccc4[nH]c3c2c1 ; value: 6.2 µM
COc1cc(OC)c2c(c1CC=C(C)C)O[C@H](c1c(CC=C(C)C)cc(OC)c(OC)c1CC=C(C)C)[C@@H](O)C2=O ; strain or isolate: ATCC 32264 ; value: >100 µg/mL
CCC(C)CC(C)CCCCCCCCC(=O)N[C@H]1C[C@@H](O)[C@H](NCCN)NC(=O)[C@@H]2[C@@H](O)CCN2C(=O)[C@H]([C@H](O)CCN)NC(=O)[C@H]([C@H](O)[C@@H](O)c2ccc(O)cc2)NC(=O)[C@@H]2C[C@@H](O)CN2C(=O)[C@H]([C@@H](C)O)NC1=O ; strain or isolate: C297 ; read by: broth dilution ; value: >16 µg/mL
COC(=O)c1ccc(N2C(=O)C(OS(=O)(=O)c3ccc(C)cc3)C2c2ccc(OC)cc2)cc1 ; strain or isolate: AH27/A ; value: 2.9 µM
CC[C@H]1/C=C(\C)[C@H](O)[C@H](C)C[C@H](OC)[C@H]2O[C@@](O)(C(=O)C(=O)N3CCCC[C@H]3C(=O)O[C@H](/C(C)=C/[C@@H]3CC[C@@H](O)[C@H](OC)C3)[C@H](C)[C@@H](O)CC1=O)[C@H](C)C[C@@H]2OC ; strain or isolate: C20 ; value: 6.25 µg/mL
CS(=O)(=O)N1CCC(n2cc(-c3nc(-c4ccc(Cl)cc4)n[nH]3)nn2)CC1 ; read by: agar ; value: >200 µg/mL
COc1ccccc1/C=C1\COc2ccccc2C1=O ; strain or isolate: 93/V ; value: 50 µg/mL
CSc1nc2ccccc2c(=O)n1/N=C1\C(=O)N(CN(C)C)c2ccccc21 ; value: 19.53 µg/mL
O=C1/C(=C/c2ccccc2O)COc2ccccc21 ; strain or isolate: 93/V ; value: 25 µg/mL
CS(=O)(=O)OC1C(=O)N(c2ccccc2)C1c1ccccc1 ; strain or isolate: AH27/A ; value: 18.92 µM
CCCCC/C=C\C/C=C/CC/C=C/[C@H]1C[C@H]([C@](O)(CC(=O)O[C@@H](C(=O)O)[C@H](CC(=O)O)C(=O)O)C(=O)O)C(=O)O1 ; value: 55 µM
O=C1C(O)C(c2ccccc2)N1c1ccccc1 ; strain or isolate: AH27/A ; value: 52.29 µM
COc1cc(O)c2c(c1)C(=O)c1c(cc3c(c1O)-c1c(cc(C)c(C(=O)NC(C)C(=O)O)c1O)[C@H](OC1OC(C)C(N(C)C)C(OC4OCC(O)C(O)C4O)C1O)[C@H]3O)C2=O ; strain or isolate: IAM 4514 ; value: 0.8 µg/mL
CCc1c(OC)ccc2sc(C)nc12 ; strain or isolate: KCCM 50564 ; read by: broth dilution ; value: >100 µg/mL
CCCCCCCCCOCC(OC)C(=O)O ; strain or isolate: ATCC66031 ; value: 80 µM
CCCCCCCC(O)CC(=O)CCc1ccc(O)c(OC)c1 ; value: 750 µg/mL
OC(c1cc(C2CC3CCC2CC3)nc2c(Cl)cc(Cl)cc12)C1CCCCN1 ; strain or isolate: ATCC 90013 ; value: 0.4 µg/mL
CSc1nc2ccccc2c(=O)n1/N=C1\C(=O)N(CN2CCOCC2)c2ccc(Br)cc21 ; value: 9.76 µg/mL
COc1cc(O)c2c(c1CC=C(C)C)O[C@H](c1c(CC=C(C)C)cc(OC)c(OC)c1CC=C(C)C)[C@@H](O)C2=O ; strain or isolate: ATCC 32264 ; value: >100 µg/mL
C=CC1=CC[C@H]2[C@@H](C[C@H]3OC(=O)[C@@]4(C)[C@@H](O)CC[C@@]2(C)[C@@]34O)[C@H]1C ; value: 0.25 µg/mL
O=C1/C(=C/c2ccccc2)CCc2ccccc21 ; strain or isolate: 93/V ; value: 25 µg/mL
OC(c1cc(-c2ccccc2)nc2c(Cl)cc(Cl)cc12)C1CCCCN1 ; strain or isolate: ATCC90112 ; value: 1.5 µg/mL
COC(=O)c1ccc(N2C(=O)C(OC(C)=O)C2c2ccccc2)cc1 ; strain or isolate: AH27/A ; value: 73.74 µM
CC1=CCC[C@@H]2[C@@](C)(CC/C(C)=C/Cn3c[n+](C)c4ncnc(NO)c43)[C@H](C)CC[C@@]12C ; strain or isolate: ATCC 90113 ; read by: resazurin ; value: 10 µg/mL
Clc1ccc(CCC(Cn2ccnc2)Sc2c(Cl)cccc2Cl)cc1 ; value: ≤1 µg/mL
CCCCCCCCCCCCCCCCCCC1=NCCCC1 ; strain or isolate: ATCC 90113 ; value: 0.47 µg/mL
CC(C)S(=O)(=O)N1CCN(c2cnn(-c3cc(F)cc(F)c3)c(=O)c2OC2CCC(F)C2)CC1 ; strain or isolate: C237 ; read by: broth dilution ; value: 4 µg/mL
O=C1C(OS(=O)(=O)c2ccc(Br)cc2)C(c2ccccc2)N1c1ccccc1 ; strain or isolate: AH27/A ; value: 3.27 µM
Cc1ccc(NC2=C(Cl)C(=O)c3nc(C)sc3C2=O)cc1 ; strain or isolate: KCCM 50564 ; read by: broth dilution ; value: 12.5 µg/mL
CSc1nc2ccccc2c(=O)n1/N=C1\C(=O)N(CN2CCCCC2)c2ccc(Br)cc21 ; value: 39.06 µg/mL
Cc1nc2c(s1)C(=O)C(Nc1ccc(C#N)cc1)=C(Cl)C2=O ; strain or isolate: KCCM 50564 ; read by: broth dilution ; value: 12.5 µg/mL
CCCCCCCCCOC[C@H](OC)C(=O)O ; strain or isolate: ATCC66031 ; value: 180 µM
CSc1nc2ccccc2c(=O)n1/N=C1\C(=O)N(CN(C)C)c2ccc(Br)cc21 ; value: 19.53 µg/mL
CC[C@@H]([C@H](C)O)n1ncn(-c2ccc(N3CCN(c4ccc(OC[C@@H]5CO[C@@](Cn6cncn6)(c6ccc(F)cc6F)C5)cc4)CC3)cc2)c1=O ; strain or isolate: 2337 (HIV+) ; value: 0.25 µg/mL
CC(CCC(=O)NCCCNCCCCNCCCN)[C@H]1CCC2C3CC[C@@H]4C[C@H](OS(=O)(=O)O)CC[C@]4(C)C3C[C@H](C)[C@@]21C ; strain or isolate: 90012 ; value: 50 µg/mL
CSc1nc2ccccc2c(=O)n1/N=C1\C(=O)N(CN2CCCCC2)c2ccc(Cl)cc21 ; value: 9.76 µg/mL
Nc1[nH]c(=O)ncc1F ; read by: broth dilution ; value: 12.5 µg/mL
CC(=O)OC1C(=O)N(c2ccccc2)C1c1ccccc1 ; strain or isolate: AH27/A ; value: 178 µM
COc1ccc(/C=C2\CSc3ccccc3C2=O)cc1 ; strain or isolate: Farwania ; value: 25 µg/mL
Cc1cc(C)c2c(n1)sc1c(Cl)nnnc12 ; value: >100 µg/mL
CSc1nc2ccccc2c(=O)n1/N=C1\C(=O)N(CN2CCCCC2)c2ccccc21 ; value: 39.06 µg/mL
COc1ccc(-c2n[nH]c(-c3cn(C4CCN(C)CC4)nn3)n2)cc1 ; read by: agar ; value: 150 µg/mL
Cc1ccc2nnc3c4ccccc4[nH]c3c2c1 ; value: >200 µM
Cc1nc2c(s1)C(=O)C(Nc1ccc(Br)cc1)=C(Cl)C2=O ; strain or isolate: KCCM 50564 ; read by: broth dilution ; value: 6.3 µg/mL
COc1ccc2[nH]c3c4ccccc4nnc3c2c1 ; value: >200 µM
Cc1nc2c(s1)C(=O)C(Nc1ccc(I)cc1)=C(Cl)C2=O ; strain or isolate: KCCM 50564 ; read by: broth dilution ; value: 12.5 µg/mL
CCOC(=O)c1cc(C)nc2sc3c(Cl)nnnc3c12 ; value: >100 µg/mL
O=C1C(O)C(c2cccc3ccccc23)N1c1ccc(Br)cc1 ; strain or isolate: AH27/A ; value: 154 µM
Cc1nc2c(s1)C(=O)C(Nc1ccc(C)c(C)c1)=C(Cl)C2=O ; strain or isolate: KCCM 50564 ; read by: broth dilution ; value: 6.3 µg/mL
CN1CCC(n2cc(-c3nc(-c4ccc(Cl)cc4)n[nH]3)nn2)CC1 ; read by: agar ; value: >200 µg/mL
OCCCCCCCCN=C=S ; strain or isolate: CNH99 ; read by: visual reading ; value: <1 µg/mL
CCS(=O)(=O)C(F)(F)C(O)(Cn1cncn1)c1ccc(F)cc1F ; strain or isolate: IFM 46531 ; value: 1 µg/mL

For reference, 5 entries again:

structure	strain or isolate	read by	value
COc1cc(O)c2c(c1CC=C(C)C)O[C@H](c1c(CC=C(C)C)cc(OC)c(OC)c1CC=C(C)C)[C@@H](O)C2=O	ATCC 32264	-	>100 µg/mL
CCCCCCCCCCCCCCCCCCC1=NCCCC1	ATCC 90113	-	0.47 µg/mL
COc1ccc(-c2n[nH]c(-c3cn(C4CCN(C)CC4)nn3)n2)cc1	-	agar	150 µg/mL
CC(C)S(=O)(=O)N1CCN(c2cnn(-c3cc(F)cc(F)c3)c(=O)c2OC2CCC(F)C2)CC1	C237	broth dilution	4 µg/mL
COC(=O)c1ccc(N2C(=O)C(OS(=O)(=O)c3ccc(C)cc3)C2c2ccc(OC)cc2)cc1	AH27/A	-	2.9 µM